Taken from: PubChem BioAssay AID504761 (Drosophila RNAi Screening Center, 2011)
The deposit covers about 22,000 reagents; below is an unselected part of those that have a named target and a result. Of all reagents, 116 (0.52%) are marked active. 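Calls depend on retest data that are not deposited; infection was ranked per plate without normalising between plates; the unit of the infection score is not given.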 The numbers tell different reagents against one gene apart. Further read-outs or replicates are left out here. No sequences are given here. Not stated in the record: the amount of reagent, the time to read-out.

Purpose: 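Genome-wide fly cell screen for genes dengue virus requires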 (primary screen)
Cells: D.Mel-2 cells from Drosophila
Reagent: long dsRNA against Drosophila genes
Treatment: infection with dengue virus type 2; dose and infection time not stated
Measured: 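Cells stained for dengue envelope protein and imaged; percent of infected cells per well on duplicate plates, ranked by infection, with stained nuclei counted for cell number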
Direction: infection score: higher = more virus-infected cells
Active means: 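Very low infection ranking in both replicate wells (chance probability at most 0.065), then a retest showing infection dropped 1.5-fold or more at p below 0.05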
Calls: active = confirmed: knock-down lowers infection; inactive = not picked or not confirmed

infection score, replicate 1, by target gene and reagent
Faf2 (Fas-associated factor 2): #1 13.8 inactive
LS2 (Large Subunit 2): #1 18.7 inactive
t (tan): #1 2.65 inactive; #2 18.4 inactive
CG33769: #1 6.14 inactive
eIF4H2 (eukaryotic translation initiation factor 4H2): #1 3.83 inactive; #2 17.1 inactive
CG44085: #1 1.77 inactive
CG17883: #1 0.9 inactive
alpha-Est6 (alpha-Esterase-6): #1 7.4 inactive
chm (chameau): #1 3.11 inactive; #2 8.35 inactive
Arp3 (Actin-related protein 3): #1 12.2 inactive; #2 0.26 inactive
Mgat4b: #1 2.16 inactive; #2 2.84 inactive
Ice1 (Interacts with the C terminus of ELL 1): #1 2.21 inactive; #2 27.1 inactive
mRpL27 (mitochondrial ribosomal protein L27): #1 4.25 inactive
amd (alpha methyl dopa-resistant): #1 2.14 inactive; #2 5.76 inactive
Lcp2 (Larval cuticle protein 2): #1 6.62 inactive
CG34337: #1 11.6 inactive
dgt3 (dim gamma-tubulin 3): #1 15 inactive
CG11294: #1 8.72 inactive; #2 1.72 inactive
mRRF1 (mitochondrial ribosome recycling factor 1): #1 16.1 inactive
Cdk8 (Cyclin-dependent kinase 8): #1 10.5 inactive; #2 22.1 inactive
CG6688: #1 5.1 inactive; #2 9.17 inactive
CG17127: #1 2.37 inactive; #2 15.3 inactive
PolG1 (DNA polymerase gamma subunit 1): #1 1.54 inactive; #2 17.9 inactive
CG10597: #1 10.3 inactive; #2 2.95 inactive
Cpr47Ee (Cuticular protein 47Ee): #1 2.85 inactive
Tie (Tie-like receptor tyrosine kinase): #1 1.43 inactive; #2 3.33 inactive

Ordered by “infection score, replicate 1” (lowest first): some entries from above
target gene	dsRNA no.	infection score, replicate 1	activity call
PolG1 (DNA polymerase gamma subunit 1)	1	1.54	inactive
CG17127	2	15.3	inactive
